Results of unrelated studies side by side (data: NIAID ChemDB).

Shared fields: growth or infection tests; agent: Mycobacterium tuberculosis

MIC bound: limit read from a one-dose screen. Rows are shuffled and stem from different studies. Percent inhibition refers to the dose given; in toxicity tests it is the harm to the cells. Fold resistance: result on the changed form divided by that on wild type. A number after MIC or MFC names an inhibition level or a share of isolates. Blank or dashed fields: not listed here. ECn: concentration that inhibits the pathogen or its effect by n%.

SMILES	endpoint	cell line	dose	mutations	read by	strain or isolate	result
O=c1[nH]c2ccc(Cl)cc2c(O)c1N=Nc1ccc(Cl)c(Cl)c1	inhibition		6.25 µg/mL		resazurin	H37Rv	95%
CC1S/C(=N\N=C2/C(=O)Nc3ccccc32)N(c2ccc(Cl)cc2)C1=O	MIC					H37Rv	>12.5 µg/mL
CCOC(=O)c1ccc2c(c1)nc(-c1ccc(N(C)C)cc1)n2CCN1CCCC1=O	EC50				resazurin / fluorescence	H37Rv	>100 µM
O=C(c1ccccc1)c1c(CO[N+](=O)[O-])n([O-])c2ccccc2[n+]1=O	MIC					PZA-R	12.5 µg/mL
CCOC(=O)c1ccc2nc(-c3ccccc3)[nH]c2c1	EC90				resazurin / fluorescence	H37Rv	>100 µM
CO[C@H]1/C=C/O[C@@]2(C)Oc3c(C)c(O)c4c(O)c(c5c(c4c3C2=O)NC2(CCN(CC(C)C)CC2)N=5)=NC(=O)/C(C)=C\C=C\[C@H](C)[C@H](O)[C@@H](C)[C@@H](O)[C@@H](C)[C@H](OC(C)=O)[C@@H]1C	MIC					H37Rv	0.015 µg/mL
CO[C@H]1/C=C/O[C@@]2(C)Oc3c(C)c(O)c4c(O)c(c(/C=N/N5CCN(C6CCCC6)CC5)c(O)c4c3C2=O)NC(=O)/C(C)=C\C=C\[C@H](C)[C@H](O)[C@@H](C)[C@@H](O)[C@@H](C)[C@H](OC(C)=O)[C@@H]1C	MIC					12761	0.02 µg/mL
O=C1NOCC1N=Cc1cc(Cl)ccc1O	MIC				BACTEC	H37Rv	>12.5 µg/mL
Fc1ccc(-n2ncc(C(c3ccccc3)n3ccnc3)c2-c2ccccc2)c(F)c1	MIC50					ATCC 35822 (isoniazid-resistant)	≥100 µM
CN1c2ccccc2CCC1CCc1ccc2c(c1)OCO2	MIC					MT2	169 µg/mL
CN(C)[C@H]1C(=O)C(C(=O)NCN2CCN(C(=N)N=C(N)N)CC2)=C(O)[C@]2(O)C(=O)C3=C(O)c4c(O)cccc4[C@](C)(O)[C@@H]3C[C@H]12	MIC bound				BACTEC	H37Rv	>12.8 µg/mL
C[C@@H]1CN(c2c(F)c(N)c3c(=O)c(C(=O)O)cn(C4CC4)c3c2F)C[C@H](C)N1	MIC					90-0233 (INH SM-RS)	0.1 µg/mL
O=C(Nc1ccc(Cl)cc1)Nc1nnc2nc(C3(c4nc5nnc(NC(=O)Nc6ccc(Cl)cc6)n5[nH]c4=O)Cc4ccccc4C3=O)c(=O)[nH]n12	inhibition		12.5 µg/mL		BACTEC	H37Rv	29%
CCOC(=O)c1ccc2c(c1)nc(-c1ccc(C(F)(F)F)cc1)n2CCN1CCCC1=O	EC90				resazurin / fluorescence	H37Rv	>100 µM
Cc1cc(N/N=C/c2cc(C)n(-c3ccccc3)c2C)c2cc(C3CCCCC3)ccc2n1	MIC	VERO				H37Rv	1.56 µg/mL
O=C(O)CCc1nc2c(n1-c1ccccc1)C(=O)c1ccccc1C2=O	MIC bound				BACTEC	H37Rv	>12.5 µg/mL
CO[C@H]1/C=C/O[C@@]2(C)Oc3c(C)c(O)c4c(O)c(c(/C=N/N5CCN(C)CC5)c(O)c4c3C2=O)NC(=O)/C(C)=C\C=C\[C@H](C)[C@H](O)[C@@H](C)[C@@H](O)[C@@H](C)[C@H](OC(C)=O)[C@@H]1C	MIC					H37Rv (capreomycin-resistant)	2.5 µg/mL
COc1cc2oc(-c3ccc(O)cc3O)c(CC=C(C)C)c(=O)c2c(O)c1/C=C/C(C)C	MIC bound				BACTEC	H37Rv	≤12.5 µg/mL
O=c1[nH]c2c([N+](=O)[O-])cccc2c(O)c1N=Nc1ccc([N+](=O)[O-])cc1	MIC				resazurin	H37Rv	<6.25 µg/mL
NNC(=O)c1ccncc1	MIC					90-0240 (drug-susceptible)	0.04 µg/mL
C=CCNC(=O)NC(=O)CSC1=NNC2(C(=O)N1)c1ccccc1-c1ccccc12	inhibition		12.5 µg/mL		BACTEC	H37Rv	37%
CCCCOc1ccc2nccc(N/N=C/c3ccc(OC)c4ccccc34)c2c1	MIC	VERO				H37Rv	6.25 µg/mL
NC(=O)c1cnccn1	MIC					Isolate K10400	>500 µg/mL
O=C(/C=C/c1ccccc1)c1ccc(Br)cc1O	inhibition		12.5 µg/mL			H37Rv	57%
Fc1ccc(-c2c(C(c3ccccc3)n3ccnc3)cnn2-c2ccccc2)cc1	MIC90					ATCC 35820 (streptomycin-resistant)	≥100 µM
CCOC(=O)c1ccc2nc(-c3ccc(Br)cc3)[nH]c2c1	EC50				resazurin / fluorescence	H37Rv	>100 µM
COc1cc(OC)c2c(=O)cc(-c3cc(OC)c(OC)c(OC)c3)oc2c1	inhibition		12.5 µg/mL			H37Rv	0%
CCCCCCCCCCCCCC(=O)OCCN1CCN(CCCN2c3ccccc3Sc3ccc(C(F)(F)F)cc32)CC1.Cl.Cl	MIC bound				BACTEC	H37Rv	>12.5 µg/mL
CCc1cc(C(N)=S)ccn1	MIC					90-0241 (drug-susceptible)	0.5 µg/mL
CCOc1cccc(NC(=O)OCCN2CCCCC2)c1	MIC					My 331/88	500 µM
COc1ccc(/C=C/C(=O)c2ccccc2F)cc1	MIC					H37Rv	>12.5 µg/mL
COc1ccc2c(N/N=C/c3c(OC)ccc4ccccc34)ccnc2c1	inhibition	VERO	12.5 µg/mL			H37Rv	100%
O=C(c1cc(OCCN2CCN(c3ccccc3)CC2)nc2ccccc12)N1CCN(c2ccccc2)CC1	inhibition		6.25 µg/mL		resazurin	H37Rv	53%
COc1ccc2c(=O)c(Br)c(-c3ccc(Cl)cc3)oc2c1	MIC					H37Rv	>12.5 µg/mL
CCN1C(=O)C(C)S/C1=N/N=C1\C(=O)Nc2ccc(Br)cc21	inhibition		12 µg/mL			H37Rv	2%
O=c1[nH]c2c(Cl)c(Cl)ccc2c(O)c1N=Nc1cccc(F)c1	inhibition		6.25 µg/mL		resazurin	H37Rv	80%
CCc1ccc([C@H]2C[C@@H](C(F)(F)F)n3ncc(C(=O)NCc4ccc(OC)cc4)c3N2)cc1	fold resistance			MmpL3: Ile292Thr	fluorescence	H37Rv	0.5
COc1ccc(-c2cc(=O)c3ccc(F)cc3o2)cc1	inhibition		12.5 µg/mL			H37Rv	50%
Fc1ccccc1-c1c(C(c2ccccc2)n2ccnc2)cnn1-c1ccccc1F	MIC50					ATCC 35837 (ethambutol-resistant)	≥100 µM
Fc1ccc(CSC(=S)Nc2ccc(F)cc2)cc1	MIC				BACTEC	H37Rv	64 µg/mL
CCCCCCCCCCOc1ccccc1NC(=O)OCCN1CCOCC1	MIC					My 331/88	16 µM
CCOC(=O)NC(=O)c1cn(CC(=O)NCC(=O)NCC(=O)NCCCN2CCN(CCCNC(=O)CNC(=O)CNC(=O)Cn3cc(C(=O)NC(=O)OCC)c(=O)[nH]c3=O)CC2)c(=O)[nH]c1=O	inhibition		6.25 µg/mL		resazurin	H37Rv	15%
Cn1c(=O)c(N=Nc2ccc(Cl)cc2)c(O)c2ccccc21	MIC				resazurin	H37Rv	>6.25 µg/mL
Clc1ccc(-c2c(C(c3ccccc3)n3ccnc3)cnn2-c2ccccc2)cc1	MIC50					ATCC 35822 (isoniazid-resistant)	≥100 µM
CO[C@H]1/C=C/O[C@@]2(C)Oc3c(C)c(O)c4c(O)c(c(/C=N/N5CCN(C)CC5)c(O)c4c3C2=O)NC(=O)/C(C)=C\C=C\[C@H](C)[C@H](O)[C@@H](C)[C@@H](O)[C@@H](C)[C@H](OC(C)=O)[C@@H]1C	MIC					TN1733	>32 µg/mL
NCC[C@H](O)C(=O)N[C@@H]1C[C@H](N)[C@@H](O[C@H]2O[C@H](CN)[C@@H](O)[C@H](O)[C@H]2O)[C@H](O)[C@H]1O[C@H]1O[C@H](CO)[C@@H](O)[C@H](N)[C@H]1O	MIC					90-0241 (drug-susceptible)	0.5 µg/mL
NNc1ccnc2ccc(C3CCCCC3)cc12	inhibition	VERO	12.5 µg/mL			H37Rv	99%
C=CCN=C(N=Nc1c(O)[nH]c2ccccc12)SCC(=O)c1ccccc1	MIC					H37Rv	>12.5 µg/mL
CCOC(=O)c1ccc2nc(-c3ccc(C(=O)O)cc3)[nH]c2c1	EC90				resazurin / fluorescence	H37Rv	>100 µM
Cc1ccc2nc(N/N=C/c3cccc(C)n3)cc(C)c2c1	MIC bound				BACTEC	H37Rv	≤12.5 µg/mL
CC[C@H]1OC(=O)[C@H](C)[C@@H](O[C@H]2C[C@@](C)(OC)[C@@H](O)[C@H](C)O2)[C@H](C)[C@@H](O[C@@H]2O[C@H](C)C[C@H](N(C)C)[C@H]2O)[C@](C)(OC)C[C@@H](C)C(=O)[C@H](C)[C@@H](O)[C@]1(C)O	MIC					90-0216 (drug-susceptible)	2 µg/mL
Clc1ccccc1C(c1ccccc1)(c1ccccc1)n1ccnc1	MIC50					ATCC 27294	20 µM
O=C(O)CCCC/C=C/CCCCCCC1C=CCC1	MIC bound				BACTEC	H37Rv	>12.5 µg/mL
O=C(CSc1nc(-c2ccccc2)c(-c2ccccc2)[nH]1)N=Nc1c(O)[nH]c2ccc(Br)cc12	MIC					H37Rv	>12.5 µg/mL
CC(C)=CC1C(C(=O)NNC(=O)C2C(C=C(C)C)C2(C)C)C1(C)C	inhibition		6.25 µg/mL		resazurin	H37Rv	2%
Cc1cc(NN)c2cc(F)ccc2n1	inhibition	VERO	12.5 µg/mL			H37Rv	69%
CCOC(=O)c1ccc2nc(-c3ccc(N4CCOCC4)cc3)[nH]c2c1	EC90				resazurin / fluorescence	H37Rv	>100 µM
CCCCCCCCOc1ccc(NC(=O)OCC[NH+]2CCCC2)cc1	MIC					My 331/88	16 µM
COc1ccc(CCc2cc(OC)c3ccccc3n2)cc1OC	MIC					MT2	25 µg/mL
CC1(C)CCCN1CCCN1c2ccccc2Sc2ccc(Cl)cc21.Cl	inhibition		12.5 µg/mL		BACTEC	H37Rv	99%
CCCCCOc1ccc(NC(=O)OCCN2CCCCCC2)cc1	MIC					My 331/88	16 µM
Cc1ccc(NC(=O)CC/C(CC(=O)C(C)(C)C)=N\NC(=O)c2cc3ccccc3cc2O)cc1C	MIC				BACTEC	H37Rv	≥12.5 µg/mL
CCOC(=O)c1ccc2c(c1)nc(-c1cccc(-c3ccc(F)cc3)c1)n2CCN1CCCOC1	EC90				resazurin / fluorescence	H37Rv	>100 µM
Clc1ccccc1-c1c(C(c2ccccc2)n2ccnc2)cnn1-c1ccccc1	MIC90					ATCC 27294	>100 µM
CCCCCCCOc1ccccc1NC(=O)OCCN1CCCCC1	MIC					My 331/88	32 µM
S=C(c1cccs1)N1CCN(c2ccccc2Cl)CC1	inhibition		6.25 µg/mL		resazurin	H37Rv	16%
Cc1c(Cl)cccc1N=Nc1c(O)c2cccc([N+](=O)[O-])c2[nH]c1=O	inhibition		6.25 µg/mL		resazurin	H37Rv	56%
Clc1ccc(-n2ncc(C(c3ccccc3)n3ccnc3)c2-c2ccccc2Cl)c(Cl)c1	MIC50					ATCC 35837 (ethambutol-resistant)	36.2 µM
COc1ccc2c(c1)[n+]([O-])c(S(=O)(=O)c1ccc(C)cc1)c(N)[n+]2[O-]	MIC					INH-r	>12.5 µg/mL
CCOC(=O)c1ccc2c(c1)nc(-c1ccc([N+](=O)[O-])cc1)n2CCN1CCCOC1	MIC				resazurin / fluorescence	H37Rv	>100 µM
CC[C@@H](CO)NCCN[C@@H](CC)CO	MIC				broth dilution / resazurin	MDR20	32 µg/mL
O=[n+]1c2ccc(Cl)cc2n([O-])c2ccc(Cl)cc21	MIC					EMB-R	12.5 µg/mL
Fc1ccc(-c2c(C(c3ccccc3)n3ccnc3)cnn2-c2ccc(F)cc2F)cc1	MIC50					ATCC 35820 (streptomycin-resistant)	≥100 µM
CC1COc2c(N3CCN(C(N)=NC#N)CC3)c(F)cc3c(=O)c(C(=O)O)cn1c23	MIC				broth dilution	ATCC 35837	0.625 µg/mL
O=C([O-])c1c(Cl)c(Cl)c(Cl)c(Cl)c1-c1c2cc(Br)c(=O)c(Br)c-2oc2c(Br)c([O-])c(Br)cc12.[Na+].[Na+]	inhibition		12.5 µg/mL		BACTEC	H37Rv	5%
CC(C)N=c1cc2n(-c3ccc(Cl)cc3)c3ccccc3nc-2cc1Nc1ccc(Cl)cc1	MIC					90-0240 (drug-susceptible)	0.4 µg/mL
O=c1[nH]c2cc([N+](=O)[O-])ccc2c(O)c1N=Nc1ccc(F)cc1	MIC				resazurin	H37Rv	<6.25 µg/mL

7 of the rows above, restated:

SMILES	endpoint	cell line	dose	mutations	read by	strain or isolate	result
O=C1NOCC1N=Cc1cc(Cl)ccc1O	MIC				BACTEC	H37Rv	>12.5 µg/mL
CC(C)=CC1C(C(=O)NNC(=O)C2C(C=C(C)C)C2(C)C)C1(C)C	inhibition		6.25 µg/mL		resazurin	H37Rv	2%
CO[C@H]1/C=C/O[C@@]2(C)Oc3c(C)c(O)c4c(O)c(c5c(c4c3C2=O)NC2(CCN(CC(C)C)CC2)N=5)=NC(=O)/C(C)=C\C=C\[C@H](C)[C@H](O)[C@@H](C)[C@@H](O)[C@@H](C)[C@H](OC(C)=O)[C@@H]1C	MIC					H37Rv	0.015 µg/mL
C=CCN=C(N=Nc1c(O)[nH]c2ccccc12)SCC(=O)c1ccccc1	MIC					H37Rv	>12.5 µg/mL
CCCCCCCCOc1ccc(NC(=O)OCC[NH+]2CCCC2)cc1	MIC					My 331/88	16 µM
O=C(c1cc(OCCN2CCN(c3ccccc3)CC2)nc2ccccc12)N1CCN(c2ccccc2)CC1	inhibition		6.25 µg/mL		resazurin	H37Rv	53%
COc1cc(OC)c2c(=O)cc(-c3cc(OC)c(OC)c(OC)c3)oc2c1	inhibition		12.5 µg/mL			H37Rv	0%